Measured values from several laboratories, pooled; numbers as filed in NIAID ChemDB.

Shared fields: growth or infection tests; organism: HIV-1; cell line: MT-4; endpoint: EC50

Blank or dashed fields: not listed here. ECn is the concentration giving n% inhibition of infection, replication or growth. Lines come from different laboratories, so protocols vary.

| structure | strain or isolate | mutations | read by | value |
|---|---|---|---|---|
| Cc1cc(N=Cc2ccc(Cl)cc2)ccc1N1C(=O)c2ccc(Cl)cc2C1=O | IIIB |  | MTT / absorbance | 0.119 µM |
| C#C[C@@]1(CO)C=C[C@H](n2cc(C)c(=O)[nH]c2=O)O1 | IIIB WT |  | cytopathic effect / MTT | 0.1 µM |
| Cn1ncc2c1S(=O)(=O)N(Cc1cccc(Cl)c1)C(=O)N2Cc1ccc(Br)cc1 | IIIB |  | cytopathic effect / MTT | >252.3 µM |
| CC(C)(C)[Si](C)(C)OC[C@@H]1CC[C@H](n2cnc3c(=O)n(CC(=O)OCc4ccccc4)cnc32)O1 | IIIB |  | cytopathic effect / trypan blue | >10 µM |
| Cc1cc(NS(C)(=O)=O)ccc1N1C(=O)c2ccc(Cl)cc2C1=O | IIIB |  | MTT / absorbance | 0.008 µM |
| COc1ccc2c(c1)N(C(=O)OC(C)C)[C@@H](CSC)C(=S)N2 | Recombinant | RT-V106A | cytopathic effect | 0.013 µM |
| Nc1ncnc2c1ncn2CCOCP(=O)(OCOC(=O)OCc1ccccc1)OCOC(=O)OCc1ccccc1.O=C(O)/C=C/C(=O)O | IIIB |  | p24 | >30 µM |
| O=S(=O)(O)OCC1OC(O)C(OS(=O)(=O)O)C(OC2OC(COS(=O)(=O)O)C(OS(=O)(=O)O)C(OC3OC(COS(=O)(=O)O)C(OS(=O)(=O)O)C(OC4OC(COS(=O)(=O)O)C(OS(=O)(=O)O)C(OC5OC(COS(=O)(=O)O)C(OS(=O)(=O)O)C(OS(=O)(=O)O)C5OS(=O)(=O)O)C4OS(=O)(=O)O)C3OS(=O)(=O)O)C2OS(=O)(=O)O)C1OS(=O)(=O)O | IIIB |  | cytopathic effect / MTT | 163 µg/mL |
| CC(C)=CCN1Cc2cc(Cl)cc3[nH]c(=S)n(c23)C[C@@H]1C |  | RT-M41L T215Y L100I |  | <3 µM |
| O=c1[nH]cnc2c1ncn2[C@H]1CC[C@@H](CO)O1 | IIIB |  | MTT | 8.085 µM |
| COC(=O)Cn1c(=O)c(C)cn([C@H]2C[C@H](N=[N+]=[N-])[C@@H](CO[Si](C)(C)C(C)(C)C)O2)c1=O | IIIB |  | cytopathic effect / trypan blue | >10 µM |
| N#CCN1C(=O)N(Cc2cccc(Cl)c2)S(=O)(=O)c2cscc21 | IIIB |  | cytopathic effect / MTT | 0.1 µM |
| CC(=O)c1cc(NCc2nc3c(Cl)ccc(Cl)c3o2)c(=O)[nH]c1C | IIIB |  | p24 / ELISA | <0.1 µM |
| Cc1cn([C@H]2C[C@H](N=[N+]=[N-])[C@@H](CO)O2)c(=O)[nH]c1=O | rA17 |  | p24 | <0.025 µM |
| Cc1c(C(C)C)s/c(=N\S(=O)(=O)c2cc(C#N)ccc2C#N)n1C | IIIB |  | cytopathic effect / MTT | 0.0018 µM |
| C1CNCCNCCCN[C@@H]([C@H]2CNCCCNCCNCCCN2)CNC1 | IIIB |  | cytopathic effect / MTT | 0.12 µg/mL |
| Cc1cc(NS(=O)(=O)C(F)(F)F)ccc1N1C(=O)c2ccc(Cl)cc2C1=O | IIIB |  | MTT / absorbance | 0.004 µM |
| CCCCCCCCCCCCCC(=O)OC[C@@H](COP(=O)(O)OC[C@@H]1CC[C@H](n2cc(C)c(=O)[nH]c2=O)O1)OC(=O)CCCCCCCCCCCCC | IIIB |  | ELISA | <10 µM |
| O=S(=O)(O)OCC1OC(O)C(OS(=O)(=O)O)C(OS(=O)(=O)O)C1OC1OC(COS(=O)(=O)O)C(OC2OC(COS(=O)(=O)O)C(OC3OC(COS(=O)(=O)O)C(OC4OC(COS(=O)(=O)O)C(OS(=O)(=O)O)C(OS(=O)(=O)O)C4OS(=O)(=O)O)C(OS(=O)(=O)O)C3OS(=O)(=O)O)C(OS(=O)(=O)O)C2OS(=O)(=O)O)C(OS(=O)(=O)O)C1OS(=O)(=O)O | IIIB |  | cytopathic effect / MTT | 267 µg/mL |
| COc1ccc(C=Nc2ccc(N3C(=O)c4ccc(Cl)cc4C3=O)c(C)c2)cc1 | IIIB |  | MTT / absorbance | 0.138 µM |
| Cn1ncc2c1S(=O)(=O)N(Cc1cccc(Cl)c1)C(=O)N2Cc1ccc(Cl)cc1Cl | IIIB |  | cytopathic effect / MTT | >257.5 µM |
| Cc1cn([C@H]2C=C[C@@H](CO)O2)c(=O)[nH]c1=O | LZ-05.95 |  | cytopathic effect | 1.68 µM |
| Fc1cccc(F)c1C1SCc2nc3ccccc3n21 | MN |  | cytopathic effect | 0.14 µM |
| CCc1cc(NCc2cc3c(Cl)ccc(Cl)c3o2)c(=O)[nH]c1C | IIIB |  | p24 / ELISA | <0.05 µM |
| Cn1ncc2c1S(=O)(=O)N(CCc1ccccc1)C(=O)N2CCc1ccc(C(C)(C)C)cc1 | IIIB |  | MTT | >285.4 µM |
| Cc1c(C(C)(C)C)s/c(=N\S(=O)(=O)c2cc(Cl)ccc2N)n1C | IIIB |  | cytopathic effect / MTT | 0.025 µM |
| Cn1ncc2c1S(=O)(=O)N(Cc1cccc(Cl)c1)C(=O)N2Cc1ccccc1F | IIIB |  | cytopathic effect / MTT | >278.5 µM |
| Nc1ccn([C@H]2CC[C@@H](CO)O2)c(=O)n1 | IIIB |  | ELISA | <10 µM |
| COC(=O)CCn1c(=O)c(C)cn([C@@H]2O[C@H](CO[Si](C)(C)C(C)(C)C)[C@@H](O)[C@H]2O[Si](C)(C)C(C)(C)C)c1=O | IIIB |  | cytopathic effect / trypan blue | >10 µM |
| Fc1cccc(F)c1[C@H]1SCc2nc3ccccc3n21 | ADP/141 |  | cytopathic effect | 0.14 µM |
| S=C(NCCc1ccccn1)Nc1ccc(Br)cn1 | A17 | RT-K103N Y181C | cytopathic effect / MTT | >100 µM |
| Nc1ccn([C@H]2CC[C@@H](CO)O2)c(=O)n1 | RF |  | cytopathic effect / MTT | 0.147 µM |
| O=C(CSc1nncnc1-c1ccccc1Cl)Nc1cccnc1Cl | IIIB |  | MTT | 0.074 µM |
| Cc1cc(NC(=S)Cc2ccc3ccccc3c2)ccc1N1C(=O)c2ccc(Cl)cc2C1=O | IIIB |  | MTT / absorbance | 0.097 µM |
| C1CNCCNCCCNCCNC1 | IIIB |  | cytopathic effect / MTT | >500 µg/mL |
| O=c1[nH]cnc2c1ncn2[C@H]1CC[C@@H](CO)O1 | BI-12.96 (HXB2(RT-A62V S68G T69D V75I F77L F116Y Q151M)) | RT-A62V S68G T69D V75I F77L F116Y Q151M | cytopathic effect | >400 µM |
| Cn1ncc2c1S(=O)(=O)N(CCc1ccc(Cl)cc1Cl)C(=O)N2CCc1ccc(Cl)cc1Cl | IIIB |  | MTT | >253 µM |
| Cn1ncc2c1S(=O)(=O)N(Cc1cccc(Cl)c1)C(=O)N2Cc1cccc(Cl)c1 | IIIB |  | cytopathic effect / MTT | >277.2 µM |
| CCCCCCCCCCOC1OC(COS(=O)(=O)O)C(OC2OC(COS(=O)(=O)O)C(OC3OC(COS(=O)(=O)O)C(OC4OC(COS(=O)(=O)O)C(OC5OC(COS(=O)(=O)O)C(OS(=O)(=O)O)C(OS(=O)(=O)O)C5OS(=O)(=O)O)C(OS(=O)(=O)O)C4OS(=O)(=O)O)C(OS(=O)(=O)O)C3OS(=O)(=O)O)C(OS(=O)(=O)O)C2OS(=O)(=O)O)C(OS(=O)(=O)O)C1OS(=O)(=O)O | IIIB |  | cytopathic effect / MTT | 10.2 µg/mL |
| Cc1cn([C@@H]2O[C@H](CO[Si](C)(C)C(C)(C)C)[C@@H](O)[C@H]2O[Si](C)(C)C(C)(C)C)c(=O)n(CCO)c1=O | IIIB |  | cytopathic effect / trypan blue | 31 µM |
| Cc1ccc(NC(=O)CSc2nncnc2-c2ccccc2Cl)c([N+](=O)[O-])c1 | RES056 |  | MTT | >22 µM |
| Nc1ncnc2c1ncn2CCOCP(=O)(OCOC(=O)OC1CCCC1)OCOC(=O)OC1CCCC1.O=C(O)/C=C/C(=O)O | IIIB |  | p24 | 3.51 µM |
| Cc1ccnc2c1NC(=O)c1cccnc1N2C1CC1 | rHXB2 |  | p24 | <0.1 µM |
| CC(C)=CCN1Cc2cc(Cl)cc3[nH]c(=S)n(c23)C[C@@H]1C | IIIB |  | cytopathic effect / MTT | 0.0015 µM |
| O=C(CSc1nncnc1-c1ccccc1Cl)Nc1ccccc1Br | RES056 |  | MTT | >55 µM |
| C[C@@H](Cn1cnc2c(N)ncnc21)OCP(=O)(OCOC(=O)OC1CCCCC1)OCOC(=O)OC1CCCCC1.O=C(O)/C=C/C(=O)O | IIIB |  | p24 | 17.5 µM |
| Cn1ncc2c1S(=O)(=O)N(CCc1ccccc1Br)C(=O)N2CCc1ccccc1Br | IIIB |  | MTT | >231.5 µM |
| CC(C)=CCOc1cc(NC(=S)c2ccoc2C)ccc1Cl | Recombinant | RT-P225H | cytopathic effect | 0.015 µM |
| CC1=C(C)C(CO)(CO)C[C@H]1n1ccc(N)nc1=O |  |  | cytopathic effect | >100 µg/mL |
| Nc1ccn([C@H]2CC[C@@H](CO)O2)c(=O)n1 | IIIB |  | MTT | 1.4 µM |
| O=c1[nH]cnc2c1ncn2[C@H]1CC[C@@H](CO)O1 | rA17 |  | p24 | <50 µM |
| O=C1c2ccccc2C(=O)N1CCOC(=S)N(C(=O)c1cccs1)c1ccc([N+](=O)[O-])cc1 | N119 nevirapine-resistant (RT Y181C) | RT-Y181C | cytopathic effect / MTT | 1.2 µM |
| CC(C)=CCN1Cc2cc(Cl)cc3[nH]c(=O)n(c23)C[C@@H]1C |  |  | cytopathic effect | 0.07 µM |
| CC(C)c1s/c(=N\S(=O)(=O)c2cccc([N+](=O)[O-])c2)n(C)c1Cl | IIIB |  | cytopathic effect / MTT | 0.048 µM |
| O=C(CSc1nncnc1-c1ccccc1Cl)Nc1ccccc1Cl | RES056 |  | MTT | >55 µM |
| Cc1c(C(C)(C)C)s/c(=N\S(=O)(=O)c2ccccc2[N+](=O)[O-])n1C | IIIB |  | cytopathic effect / MTT | >25 µM |
| Cc1ccc(CCN2C(=O)N(CCc3ccc(C)cc3)S(=O)(=O)c3c2cnn3C)cc1 | IIIB |  | MTT | >170.5 µM |
| C=C(C)OC(=O)N1c2cc(Cl)ccc2NC(=S)C1(C)C | Recombinant | RT-V106A | cytopathic effect | 0.06 µM |
| O=C1c2ccccc2C(=O)N1CCOC(=S)N(C(=O)c1ccc(Cl)cc1)c1ccc(Cl)cc1 | A17 | RT-K103N Y181C | cytopathic effect / MTT | >100 µM |
| Cc1c(C(C)(C)C)s/c(=N\S(=O)(=O)c2cc(Cl)ccc2[N+](=O)[O-])n1C | IIIB |  | cytopathic effect / MTT | 0.36 µM |
| CCc1cc(NCc2nc3c(Cl)ccc(Cl)c3o2)c(=O)[nH]c1C | IIIB |  | p24 / ELISA | <0.05 µM |
| Nc1ncnc2c1ncn2CCOCP(=O)(O)OCOC(=O)OCc1ccccc1 |  |  | p24 | >30 µM |
| Cc1cn([C@@H]2O[C@H](CO[Si](C)(C)C(C)(C)C)[C@@H](O)[C@H]2O[Si](C)(C)C(C)(C)C)c(=O)n(CC(=O)ON)c1=O | IIIB |  | cytopathic effect / trypan blue | >2 µM |
| N#Cc1cc([C@H]2C[C@H](N=[N+]=[N-])[C@@H](CO)O2)cc(=O)[nH]1 | ROD |  | MTT | >478 µM |
| O=C1c2ccccc2C(=O)N1CCOC(=S)N(C(=O)c1ccco1)c1ccc(Cl)cc1 | IIIB | RT-K103R V179D P225H | cytopathic effect / MTT | >100 µM |
| CC(C)c1s/c(=N\S(=O)(=O)c2cc(Br)ccc2O)n(C)c1Cl | IIIB |  | cytopathic effect / MTT | 0.037 µM |
| Cc1cn([C@H]2C[C@H](N=[N+]=[N-])[C@@H](CO)O2)c(=O)[nH]c1=O | SCV 4005 |  | antigen | 0.013 µM |
| CC(C)Nc1cccnc1N1CCN(C(=O)c2cc3cc(NS(C)(=O)=O)ccc3[nH]2)CC1 | IIIB |  | MTT | 0.032 µM |
| CCCCCCCCCCCCCC(=O)OC[C@@H](COP(=O)(O)OC[C@@H]1CC[C@H](n2ccc(N)nc2=O)O1)OC(=O)CCCCCCCCCCCCC | IIIB |  | ELISA | <10 µM |
| O=C(CSc1nncnc1-c1ccccc1Cl)Nc1ccccc1F | IIIB |  | MTT | 0.21 µM |
| CC(C)Nc1cccnc1N1CCN(C(=O)c2cc3cc(NS(C)(=O)=O)ccc3[nH]2)CC1 | AJ-05.93 (HXB2(RT-L74V)) | RT-L74V | cytopathic effect | 0.144 µM |
| Fc1cccc(F)c1[C@@H]1SCc2nc3ccccc3n21 | HE |  | cytopathic effect | 1.83 µM |
| Cc1cn([C@H]2C[C@H](N=[N+]=[N-])[C@@H](CO)O2)c(=O)[nH]c1=O | HE |  | cytopathic effect / MTT | 0.0004 µM |

A second listing of 4 rows from above:

structure	strain or isolate	mutations	read by	value
O=C(CSc1nncnc1-c1ccccc1Cl)Nc1ccccc1F	IIIB		MTT	0.21 µM
CC(C)c1s/c(=N\S(=O)(=O)c2cccc([N+](=O)[O-])c2)n(C)c1Cl	IIIB		cytopathic effect / MTT	0.048 µM
CCCCCCCCCCCCCC(=O)OC[C@@H](COP(=O)(O)OC[C@@H]1CC[C@H](n2ccc(N)nc2=O)O1)OC(=O)CCCCCCCCCCCCC	IIIB		ELISA	<10 µM
Fc1cccc(F)c1[C@@H]1SCc2nc3ccccc3n21	HE		cytopathic effect	1.83 µM